ChEMBL document CHEMBL3596191, “Inhibition studies of bacterial, fungal and protozoan β-class carbonic anhydrases with Schiff bases incorporating sulfonamide moieties” (Bioorg Med Chem, 2015)

How the values were obtained:
[1] = Selectivity ratio of Ki for human alpha-carbonic anhydrase 2 to Ki for Cryptococcus neoformans var. grubii beta-carbonic anhydrase
[2] = Selectivity ratio of Ki for human alpha-carbonic anhydrase 2 to Ki for Brucella suis beta-carbonic anhydrase 2
[3] = Selectivity ratio of Ki for human alpha-carbonic anhydrase 1 to Ki for Brucella suis beta-carbonic anhydrase 2
[4] = Selectivity ratio of Ki for human alpha-carbonic anhydrase 1 to Ki for Leishmania donovani chagasi beta-carbonic anhydrase
[5] = Selectivity ratio of Ki for human alpha-carbonic anhydrase 1 to Ki for Brucella suis beta-carbonic anhydrase 1
[6] = Selectivity ratio of Ki for human alpha-carbonic anhydrase 2 to Ki for Leishmania donovani chagasi beta-carbonic anhydrase
[7] = Selectivity ratio of Ki for human alpha-carbonic anhydrase 2 to Ki for Brucella suis beta-carbonic anhydrase 1
[8] = Selectivity ratio of Ki for human alpha-carbonic anhydrase 1 to Ki for Cryptococcus neoformans var. grubii beta-carbonic anhydrase

SMILES: CC(=O)Nc1nnc(S(N)(=O)=O)s1
- Ratio Ki [1]: 1.1
- Ratio Ki [2]: 0.04
- Ratio Ki [3]: 0.8
- Ratio Ki [4]: 2.7
- Ratio Ki [5]: 4
- Ratio Ki [6]: 0.1
- Ratio Ki [7]: 0.2
- Ratio Ki [8]: 23.8
